# Sequence variants of PSTVd loop 15 after infection

Values reported by Wu et al. 2024 (doi:10.1371/journal.ppat.1012142).

PSTVd intermediate strain, loop 15: wild type GGAAACCGCUACUAC, pool pattern GGAAACCGNNNNNNC; upper and lower strand joined, each 5' to 3', the first 7 letters being the upper strand, closing pairs included.

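A pool of all variants was put on leaves of three Nicotiana benthamiana plants. Samples came from the inoculated region at 5 days, the leaf margin at 10 and upper systemic leaves at 12.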

Values are reads per thousand in the sample; higher means more abundant, 0 means not found.
Each value is the mean of three plants.
"Pool" is the share in the plasmid pool used as inoculum, on the same scale.
The inoculated region was read from the minus strand, the other sites from the plus strand.

GGAAACCGUGUCUAC (pool 0.160): inoculated region 0.349; leaf margin 0.0821; systemic leaves 0.00537.
GGAAACCGUGGUACC (pool 0.192): inoculated region 0.153; leaf margin 0.00668; systemic leaves 0.
GGAAACCGCGCCAGC (pool 0.192): inoculated region 0.0551; leaf margin 0.00539; systemic leaves 0.00537.
GGAAACCGAAACUAC (pool 0.208): inoculated region 0.261; leaf margin 0.133; systemic leaves 0.0689.
GGAAACCGGUAGCUC (pool 0.272): inoculated region 0.0787; leaf margin 0.0108; systemic leaves 0.
GGAAACCGAUUAGAC (pool 0.176): inoculated region 0.0905; leaf margin 0.0141; systemic leaves 0.
GGAAACCGGGGCGCC (pool 0.128): inoculated region 0.0751; leaf margin 0.0395; systemic leaves 0.
GGAAACCGUCAAUGC (pool 0.208): inoculated region 0.357; leaf margin 0.135; systemic leaves 0.0632.
GGAAACCGGCUGGGC (pool 0.240): inoculated region 0.119; leaf margin 0.0269; systemic leaves 0.
GGAAACCGGUAGGGC (pool 0.256): inoculated region 0.127; leaf margin 0.0121; systemic leaves 0.00537.
GGAAACCGAAGUCCC (pool 0.176): inoculated region 0.123; leaf margin 0.00668; systemic leaves 0.
GGAAACCGGAAGACC (pool 0.224): inoculated region 0.112; leaf margin 0.00742; systemic leaves 0.00537.
GGAAACCGACCUCGC (pool 0.256): inoculated region 0.133; leaf margin 0.0200; systemic leaves 0.0155.
GGAAACCGAAGGAGC (pool 0.256): inoculated region 0.0742; leaf margin 0.0121; systemic leaves 0.
GGAAACCGAUACCGC (pool 0.272): inoculated region 0.0869; leaf margin 0.0108; systemic leaves 0.
GGAAACCGGCCUCAC (pool 0.128): inoculated region 0.107; leaf margin 0.00668; systemic leaves 0.
GGAAACCGUAAUCUC (pool 0.224): inoculated region 0.0783; leaf margin 0.0108; systemic leaves 0.
GGAAACCGAAAACAC (pool 0.160): inoculated region 0.298; leaf margin 0.171; systemic leaves 0.0873.
GGAAACCGCCUUAUC (pool 0.256): inoculated region 0.0991; leaf margin 0.0303; systemic leaves 0.
GGAAACCGAGACUUC (pool 0.256): inoculated region 0.287; leaf margin 0.138; systemic leaves 0.0534.
GGAAACCGAAUUCUC (pool 0.160): inoculated region 0.106; leaf margin 0.00668; systemic leaves 0.0104.
GGAAACCGGCGUUGC (pool 0.336): inoculated region 0.107; leaf margin 0.0254; systemic leaves 0.
GGAAACCGAUAAAAC (pool 0.176): inoculated region 0.275; leaf margin 0.152; systemic leaves 0.0648.
GGAAACCGCUAUACC (pool 0.160): inoculated region 0.0796; leaf margin 0; systemic leaves 0.
GGAAACCGAUAAUCC (pool 0.112): inoculated region 0.384; leaf margin 0.0549; systemic leaves 0.0764.
GGAAACCGUGAGCAC (pool 0.208): inoculated region 0.309; leaf margin 0.142; systemic leaves 0.0632.
GGAAACCGGGCGGGC (pool 0.160): inoculated region 0.0668; leaf margin 0.00668; systemic leaves 0.
GGAAACCGGUCCAUC (pool 0.288): inoculated region 0.118; leaf margin 0.00742; systemic leaves 0.
GGAAACCGAUGUUCC (pool 0.208): inoculated region 0.0991; leaf margin 0.0262; systemic leaves 0.
GGAAACCGUUCGACC (pool 0.208): inoculated region 0.0768; leaf margin 0.00668; systemic leaves 0.00537.
GGAAACCGUCACGCC (pool 0.192): inoculated region 0.0932; leaf margin 0.00742; systemic leaves 0.
GGAAACCGGACGGUC (pool 0.288): inoculated region 0.137; leaf margin 0.0141; systemic leaves 0.0107.
GGAAACCGUGCACUC (pool 0.336): inoculated region 0.0993; leaf margin 0.0249; systemic leaves 0.

Extract of 2 entries:

| sequence | pool | inoculated region | leaf margin | systemic leaves |
|---|---|---|---|---|
| GGAAACCGAUAAUCC | 0.112 | 0.384 | 0.0549 | 0.0764 |
| GGAAACCGGUAGCUC | 0.272 | 0.0787 | 0.0108 | 0 |

For reference, wild type rose from 33.9 per thousand in the pool to 202, 200, 159 (inoculated region), 724, 746, 710 (leaf margin) and 856, 883, 880 (systemic leaves).
The authors trace changes outside the varied positions to PCR and sequencing errors or to mutation in the plant; presence does not show that a variant is infectious alone.
Samples held 43,870 to 66,106 reads, so the smallest values rest on one or two reads.